Tests used:
Experiment in all cases: flow cytometry, S-HBs-transfected 293-F cells
[1] = molecular target: genotype D S-HBs mutant protein T126A (hepatitis B virus genotype D)
[2] = molecular target: genotype D S-HBs mutant protein M133T (hepatitis B virus genotype D)
[3] = molecular target: genotype D S-HBs mutant protein Y134V (hepatitis B virus genotype D)
[4] = molecular target: genotype D S-HBs mutant protein G145R (hepatitis B virus genotype D)
[5] = molecular target: genotype D S-HBs mutant protein N146S (hepatitis B virus genotype D)

B1: Bv6.172 (antibody)
heavy: EVQLVQSGAAVRKPGESLRISCQASGFSFTNYWITWVRQRPGKGLEWMGRIDTRDSYTNYSPSFQGHVTISIDRSINTAYLQWSSLKASDTAMYYCARLSTTYPLNYYGMDVWGQGTTVTVSSASTKGPSVFPLAPSSKSTSGGTAALGCLVKDYFPEPVTVSWNSGALTSGVHTFPAVLQSSGLYSLSSVVTVPSSSLGTQTYICNVNHKPSNTKVDKRV[human IgG1 Fc not spelt out]
light: QSVLTQPPSVSGTPGQRVTISCTGSSSNIGANYDVNWYQQLPGTAPKVLIYGNTNRPSGVPDRFSGSKSGTSASLAITGLQAEDEADYYCQSYDTSLSGWVFGGGTKLTVLGQPKAAPSVTLFPPSSEELQANKATLVCLISDFYPGAVTVAWKADSSPVKAGVETTTPSKQSNNKYAASSYLSLTPEQWKSHRSYSCQVTHEGSTVEKTVAPTECS
% of bound S-HBs-expressing cells [1]: 75% | % of bound S-HBs-expressing cells [2]: 71% | % of bound S-HBs-expressing cells [3]: 69% | % of bound S-HBs-expressing cells [4]: 24% | % of bound S-HBs-expressing cells [5]: 77%
